PubChem BioAssay AID624099 – ICCB-Longwood – 2012

- Screen: 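Human genes that papillomavirus E2 requires to repress the HPV18 LCR promoter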 (primary screen)
- Cells: human C33A cervical carcinoma cells (HPV-negative) stably expressing BPV1 E2 and an HPV18 LCR luciferase reporter
- Knock-down reagent: siRNA pool against human genes, 40 nM
- Duration: 72 h
- Measured: 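Per-well luciferase luminescence, z-scored on each plate against the plate mean and SD with control wells left out, then averaged across three replicate plates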
- Scale: mean z-score and z-score: higher = stronger reporter signal, weaker E2 silencing
- Hit rule: 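Mean z ≥ 2 together with z ≥ 2 in two or more of the three replicates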
Here is one part, drawn at random, of about 21,000 reagents. 497 of them (2.4%) were called active. 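Higher z means weaker E2 silencing; only reporter increases were scored, and knock-downs that hurt cell survival may mask genuine repressor factors.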

Silencing of GADD45G came out at: mean z-score 2.24; z-score, replicate A = 2.29; z-score, replicate B = 1.9; z-score, replicate C = 2.53; active.
After knock-down of MASP2, the screen gave mean z-score 0.77; z-score, replicate A = 1.11; z-score, replicate B = 0.82; z-score, replicate C = 0.37; inactive.
Against TWSG1, the values are mean z-score 2.38; z-score, replicate A = 2.69; z-score, replicate B = 2.32; z-score, replicate C = 2.13; active.
CTAG2 gave mean z-score -0.16; z-score, replicate A = 0.34; z-score, replicate B = -0.66; z-score, replicate C = -0.17; inactive.
Silencing of G6PD came out at: mean z-score 0.84; z-score, replicate A = 0.46; z-score, replicate B = 1.35; z-score, replicate C = 0.7; inactive.
Against MME the deposit lists mean z-score 1.17; z-score, replicate A = 1.04; z-score, replicate B = 1.11; z-score, replicate C = 1.34; inactive.
Against RNF2 the deposit lists mean z-score 0.48; z-score, replicate A = 0.5; z-score, replicate B = 0.45; z-score, replicate C = 0.49; inactive.

Entries above marked active:
GADD45G → mean z-score: 2.24; z-score, replicate A: 2.29; z-score, replicate B: 1.9; z-score, replicate C: 2.53; outcome: active
TWSG1 → mean z-score: 2.38; z-score, replicate A: 2.69; z-score, replicate B: 2.32; z-score, replicate C: 2.13; outcome: active

The list goes on.
For EPB41L1 the deposit lists mean z-score -0.54; z-score, replicate A = -0.89; z-score, replicate B = -0.46; z-score, replicate C = -0.27; inactive.
TGOLN2 showed mean z-score -0.8; z-score, replicate A = -0.81; z-score, replicate B = -0.63; z-score, replicate C = -0.96; inactive.
With knock-down of RHOBTB1, the screen gave mean z-score 0.06; z-score, replicate A = -0.08; z-score, replicate B = -0.03; z-score, replicate C = 0.3; inactive.
With knock-down of TYRP1 the results were mean z-score 0.43; z-score, replicate A = 0.22; z-score, replicate B = 0.57; z-score, replicate C = 0.49; inactive.
For STYK1, the values are mean z-score 0.53; z-score, replicate A = 0.56; z-score, replicate B = 0.35; z-score, replicate C = 0.69; inactive.
